First the molecules themselves.
B1: sperm whale ACE2, mFc-tagged (Fc fusion)
chain: QSTTEEQAKTFLQKFDHEAEDLSYQSSLASWNYNTNITDENVQKMNAARAKWSAFYEEQSRTAKTYPLEEIQNLTLKRQLQALQQSGTSVLSADKSKRLNTILNTMSTIYSSGKVLDPNTQECLVLEPGLDDIMENSEDYSRRLWAWEAWRAEVGKQLRPLYEEYVVLENEMARANNYEDYGDYWRGDYEVTGAGDYDYSRDQLITDVERTFAEIKPLYEQLHAYVRAKLMDAYPSRISPTGCLPAHLLGDMWGRFWTNLYPLTVPFGEKSSIDVTKEMRNQSWDAKRIFKEAEKFFVSIGLPNMTQEFWDNSMLTEPGDGRKVVCHPTAWDLGKGDFRIKMCTKVTMDDFLTARHEMGHIQYDMAYATQPYLLRNGANEGFHEAVGEIMSLSAATPHYLKALGLLPPDFYEDSATEINFLLKQALKIVGTLPFTYMLEKWRWMVFKGEIPKEQWMQKWWEMKREIVGVVEPLPHDETYCDPACLFHVAEDYSFIRYYTRTIYQFQFHEALCQAAKHEGPLYKCDISNSTEAGQRLLQMLHLGKSEPWTSALENIVGVKTMDVKPLLNYFEPLLTWLKDQNRNSFVGWSTDWTPYSDQSIKVRISLKSALGEKAYEWNDNEMYLFRSSVAYAMREYFSKVRNETIPFGEEDVRVGDLKPRISFTFFVTSPKNVSDIIPRTEVEEAIRMSRGRINDAFRLDDNSLEFLGIEPTLGPPYEPPVT
B2: sea lion ACE2, mFc-tagged (Fc fusion)
chain: RSTTEDLVKTFLEKFNSEAEELSYQSSLASWNYNTNITDENVQKMNDAGAKWSAFYEEQSKQAKTYPLEEIQDSTVKRQLQALQHSGSSVLSADKSQRLNTILNAMSTIYSTGKACNPNNPQECLLLEPGLDDIMANSRDYNERLWAWEGWRSEVGKQLRPLYEEYVALKNEMARANNYEDYGDYWRGDYEEEWTNGYNYSRDQLIKDVEQTFTQIQPLYEHLHAYVRAKLMDTYPSHMSPTGCLPAHLLGDMWGRFWTNLYPLTVPFGQKPNIDVTDTMVNQSWDARRIFEEAEKFFVSVGLPNMTQGFWENSMLTEPGDSRKVVCHPTAWDLGKHDFRIKMCTKVTMDDFLTAHHEMGHIQYDMAYAAQPFLLRNGANEGFHEAVGEIMSLSAATPKHLKNIGLLPPGFSEDNETDINFLFKQALTIVGTLPFTYMLEKWRWMVFKGEIPKEQWMKKWWEMKRDLVGVVEPLPHDETYCDPASLFHVANDYSFIRYYTRTIYQFQFQEALCQIAKHEGPLHKCDISNSSEAGQTLLQMLKLGRSKPWTLALYRVVGAKNMDVRPLLNYFDPLFTWLKEQNRNSFVGWNTDWSPYADQSIKVRISLKSALGEKAYEWNDNEMYLFRSSIAYAMREYFSKVKNQMIPFVEDNVWVNNLKPRISFTFFVTSPGNMSDIIPRADVEEAIRMSRGRINDAFRLDDNSLEFLGIQPTLEPPYQPPVT
B3: fur seal ACE2, mFc-tagged (Fc fusion)
chain: B2 chain with L28F, A93V, M239I, N643K, M645T
B4: minke whale ACE2, mFc-tagged (Fc fusion)
chain: QSTTEEQAKTFLQKFDHEAEDLSYRSSLASWNYNTNITDENVQKMNAARAKWSAFYEEQSRIAKTYPLEEIQNLTLKRQLQALQQSGTSVLSADKSKRLNTILNTMSTIYSSGKVLDPNTQEYLVLEPGLDDIMENSEDYNRRLWAWEGWRAEVGKQLRPFYEEYVVLENEMARANNYEDYGDYWRGDYEVTGADGYDYSRNQLIADVERTFAEIKPLYEQLHAYVRAKLMDAYPSRISPTGCLPAHLLGDMWGRFWTNLYPLTVPFGEKPSIDVTKEMQNQSWDAKRIFKEAEKFFVSIGLPNMTQEFWVNSMLTEPGDGRKVVCHPTAWDLGKGDFRIKMCTKVTMDDFLTAHHEMGHIQYDMAYATQPFLLRNGANEGFHEAVGEIMSLSAATPHYLKALGLLPPDFYEDNVTEINFLLKQALQIVGTLPFTYMLEKWRWMVFKGEIPKEQWMQKWWEMKREIVGVVEPLPHDETYCDPACLFHVAEDYSFIRYYTRTIYQFQFHEALCQTAKHEGPLYKCDISNSTEAGQRLLQMLHLGKSEPWTLALENIVGVKTMDVKPLLNYFEPLLTWLKEQNRNSPVGWSTDWTPYSDQSIKVRISLKSALGEKAYEWNDNEMYLFQSSVAYAMREYFSKVRNETIPFGEKDVWVSDLKPRISFNFFVTTPKNVSDIIPRTEVEEAIRMSRGRINDAFRLDDNSLEFLGIQPTLGPPYEPPVT
B5: dolphin ACE2, mFc-tagged (Fc fusion)
chain: QSATEERAKTFLQKFDREAEDLSYQSSLASWNYNTNITDENVQKMNAAGAKWSAFYEEQSRIAKTYPLEEIRNLTLKRQLQVLQQSGTSVLSADKSKRLNAILSTMSTIYSSGKVLDPNTQESLVLEPGLDDIMENSKDYNRRLWAWEGWRAEVGKQLRPLYEEYVVLENEMARANNYEDYGDYWRGDYEVTGAGDYDYSRDQLIRDVERTFAEIKPLYEQLHAYVRAKLMDAYPSRISPTGCLPAHLLGDMWGRFWTNLYPLTVPFGERPSIDVTKEMQNQSWDAKRIFKEAEKFFVSIGLPNMTQGFWDNSMLTEPGDGRKVVCHPTAWDLGKGDFRIKMCTKVTMDDFLTAHHEMGHIQYDMAYATQPYLFRNGANEGFHEAVGEIMSLSAATPHYLKALGLLPPDFYEDSATEINFLLKQALTIVGTLPFTYMLEKWRWMVFKGEIPKEQWMQKWWEMKREIVGVVEPLPHDETYCDPACLFHVAEDYSFIRYYTRTIYQFQFHEALCQTAKHEGPLYKCDISNSTEAGQRLLQMLHLGKSEPWTSALERIVGVKTMDVKPLLNYFEPLLTWLKGQNRNSFVGWRTDWTPYSNQSIKVRISLKSALGEKAYEWNDNEMYLFRSSVAYAMREYFSKVRNKTIPFGEKDVWVSDLKPRISFNFFVTSPKNMSDIIPRTEVEEAIRMSRGRINDAFRLDDSSLEFLGVQPTLAPPYEPPVT

Residue numbers refer to the chain shown, from its start.

This test addresses SARS-CoV receptor-binding domain (RBD) (SARS-CoV, UniProt P59594). Description: SPR. Background: In SPR one partner is held on a chip, and binding of the other changes the refractive index at the surface.
The molecule B1 had a dissociation constant Kd of 76.2 nM. As for B2, the Kd worked out at 162 nM. Under B3 stands 2390 nM. Under B4 stands 17.7 nM; under B5, 184 nM.

For orientation: Kd means the free concentration of one partner at which half of the binding sites on the other are occupied at equilibrium, for simple one-to-one binding.

(Values after PMC9517163 (2022).)
